The subject of one test is Plasmodium falciparum. Briefly: Antimalarial activity against blood stage Plasmodium falciparum 3D7 assessed as reduction in parasite viability incubated for 72 hrs by SYBR green dye based fluorescence assay.
Test [1] can be described thus: Inhibition of Plasmodium falciparum NEK3 incubated for 2 hrs by luciferin-reagent based luminometer analysis.
The nature of test [2]: Inhibition of Plasmodium falciparum PKB incubated for 2 hrs by luciferin-reagent based luminometer analysis.
The nature of test [3]: Inhibition of Plasmodium falciparum PKB.
A short description of test [4]: Inhibition of Plasmodium falciparum ARK1 incubated for 2 hrs by luciferin-reagent based luminometer analysis.
Test [5] in a line: Inhibition of Plasmodium falciparum ARK3 incubated for 2 hrs by luciferin-reagent based luminometer analysis.
Test [6] can be described thus: Binding affinity to Plasmodium falciparum PK9 assessed as dissociation constant.
Test [7] in a line: Inhibition of Plasmodium falciparum PK9 incubated for 2 hrs by luciferin-reagent based luminometer analysis.

Take `COc1cc(N2CCOCC2)ccc1Nc1ncc(C#N)c(Nc2ccccc2NS(C)(=O)=O)n1`: in the test on Plasmodium falciparum, the EC50 was 430 nM. The values for the IC50 in test [1] and in test [2] were 140 nM and 180 nM, respectively.

Take `COc1cc(N2CCOCC2)ccc1Nc1ncc(C2CC2)c(Nc2ccccc2NS(C)(=O)=O)n1`: in the test with Plasmodium falciparum, the EC50 turned out to be 1200 nM. Inhibition in test [2] was half-maximal at 240 nM (IC50).

In the case of `COc1cc(N2CCOCC2)ccc1Nc1ncc(Cl)c(Nc2ccccc2NS(=O)(=O)c2cn(C)cn2)n1`, the IC50 was determined as 1400 nM in test [1] and 2100 nM in test [2].

The compound `Cc1n[nH]c2ccc(-c3cncc(OC[C@@H](N)Cc4c[nH]c5ccccc45)c3)cc12` yielded a concentration for half-maximal inhibition (IC50) in test [3] of 200 nM. That is a sub-micromolar value.

As to `COc1cc(N2CCOCC2)ccc1Nc1ncc(Cl)c(Nc2ccccc2NS(=O)(=O)NC(C)C)n1`, the 50% inhibitory concentration (IC50) came out at 5100 nM in test [4], 1400 nM in test [5] and 5000 nM in test [2].

With `CCCn1/c(=N/C(=O)c2cccc(C(N)=O)c2)[nH]c2ccccc21`, in test [6], the Kd amounted to 450 nM.

As to `COc1cc(N2CCOCC2)ccc1Nc1ncc(C(N)=O)c(Nc2ccccc2NS(C)(=O)=O)n1`, the concentration for half-maximal inhibition (IC50) in test [4] turned out to be 1100 nM; in test [1] it was 2500 nM; in test [7], 210 nM; in test [2], 310 nM.

Turning to `CCc1cnc(Nc2ccc(N3CCOCC3)cc2OC)nc1Nc1ccccc1NS(C)(=O)=O`, the values for the IC50 in test [1] and in test [2] were 600 nM and 170 nM, respectively.

In test [2], `COc1cc(N2CCOCC2)ccc1Nc1ncc(F)c(Nc2ccccc2NS(C)(=O)=O)n1` displayed an IC50 of 1500 nM.

Consider `COc1cc(N2CCOCC2)ccc1Nc1ncc(C)c(Nc2ccccc2NS(C)(=O)=O)n1`, for which the IC50 in test [1] came out at 2300 nM; in test [2], 160 nM.

`COc1cc(Nc2ncc(Cl)c(Nc3ccccc3NS(C)(=O)=O)n2)ccc1N1CCOCC1`: the EC50 in the test on Plasmodium falciparum was determined as 160 nM. Moreover, the IC50 in test [4] stood at 240 nM; in test [5] it was 6000 nM; in test [1], 60 nM; in test [7], 40 nM; in test [2], 14 nM.

Consider `COc1cc(N2CCOCC2)ccc1Nc1ncc(Cl)c(Nc2ccccc2NS(C)(=O)=O)n1`, for which, in the test with Plasmodium falciparum, the EC50 is 340 nM. Besides, the IC50 is 3400 nM in test [4]; 1800 nM in test [5]; 1000 nM in test [1]; 1200 nM in test [7]; 70 nM in test [2].

Turning to `Cc1cc(Nc2ncc(Cl)c(Nc3ccccc3NS(C)(=O)=O)n2)ccc1N1CCOCC1`, in the test on Plasmodium falciparum, the EC50 amounted to 350 nM. For the same compound, the 50% inhibitory concentration (IC50) in test [4] was determined as 180 nM; in test [5], 7000 nM; in test [1] it was 57 nM; in test [7], 30 nM; in test [2], 15 nM.

With `CS(=O)(=O)Nc1ccccc1Nc1nc(Nc2ccc(N3CCOCC3)cc2F)ncc1Cl`, the IC50 in test [4] is 1900 nM; in test [5], 8000 nM; in test [1] it was 420 nM; in test [7], 350 nM; in test [2], 51 nM.

With `CS(=O)(=O)Nc1ccccc1Nc1nc(Nc2ccc(N3CCOCC3)cc2O)ncc1Cl`, the IC50 was 3100 nM in test [4]; 11000 nM in test [5]; 220 nM in test [1]; 1200 nM in test [7]; 430 nM in test [2].

Take `COc1cc(N2CCOCC2)ccc1Nc1ncc(-c2cnn(C)c2)c(Nc2ccccc2NS(C)(=O)=O)n1`: in test [1], inhibition was half-maximal at 1200 nM (IC50).

For `COc1cc(N2CCOCC2)ccc1Nc1ncc(Cl)c(Nc2ccccc2NS(=O)(=O)CC(C)C)n1`, the IC50 was 1100 nM in test [5] and 3900 nM in test [1].

With `COc1ccc2c(c1)c(C1=C(c3c[nH]c4ccccc34)C(=O)NC1=O)cn2CCCN(C)C`, the IC50 in test [3] amounted to 1000 nM.

For `COc1cc(N2CCOCC2)ccc1Nc1ncc(OC)c(Nc2ccccc2NS(C)(=O)=O)n1`, the values for the IC50 in test [1] and in test [2] were 900 nM and 700 nM, respectively.

For the compound `CS(=O)(=O)Nc1ccccc1Nc1nc(Nc2ccc(N3CCOCC3)c(Cl)c2)ncc1Cl`, the half-maximal effective concentration (EC50) in the test on Plasmodium falciparum was 430 nM. In addition, the IC50 was 340 nM in test [4]; 14000 nM in test [5]; 120 nM in test [1]; 56 nM in test [7]; 17 nM in test [2].

For the compound `CS(=O)(=O)Nc1ccccc1Nc1nc(Nc2ccc(N3CCOCC3)cc2)ncc1Cl`, the EC50 with Plasmodium falciparum is 430 nM. For the same compound, the half-inhibitory concentration (IC50) in test [4] is 380 nM; in test [5], 2000 nM; in test [1] it was 110 nM; in test [7] it was 44 nM; in test [2] it was 21 nM.

`COc1cc(N2CCOCC2)ccc1Nc1ncc(C(F)(F)F)c(Nc2ccccc2NS(C)(=O)=O)n1`: the EC50 in the test with Plasmodium falciparum turned out to be 380 nM. Also, the IC50 in test [4] was found to be 1200 nM; in test [5], 1400 nM; in test [1], 510 nM; in test [7], 75 nM; in test [2] it was 13 nM.

Turning to `CCS(=O)(=O)Nc1ccccc1Nc1nc(Nc2ccc(N3CCOCC3)cc2OC)ncc1Cl`, the IC50 in test [5] came out at 460 nM; in test [1], 840 nM; in test [7], 640 nM; in test [2], 180 nM.

On to `COc1cc(N2CCOCC2)ccc1Nc1ncc(I)c(Nc2ccccc2NS(C)(=O)=O)n1`, for which the EC50 in the test with Plasmodium falciparum is 540 nM. Besides, the IC50 stood at 1200 nM in test [5], 410 nM in test [1], 72 nM in test [7] and 50 nM in test [2].

In test [2], `COc1cc(N2CCOCC2)ccc1Nc1ncc(Cl)c(Nc2ccccc2NC(C)=O)n1` displayed an IC50 of 2100 nM.

As for `COc1cc(N2CCOCC2)ccc1Nc1ncc(Br)c(Nc2ccccc2NS(C)(=O)=O)n1`, the EC50 in the test with Plasmodium falciparum is 690 nM. Further, the IC50 in test [5] was found to be 1000 nM; in test [1], 440 nM; in test [7], 290 nM; in test [2], 42 nM.

Regarding `CS(=O)(=O)Nc1ccccc1Nc1nc(Nc2ccc(N3CCOCC3)cc2Cl)ncc1Cl`, the IC50 in test [4] turned out to be 2700 nM; in test [5] it was 7000 nM; in test [1], 550 nM; in test [7], 590 nM; in test [2], 37 nM.

As for `COc1cc(N2CCOCC2)ccc1Nc1ncc(Cl)c(Nc2ccccc2NS(=O)(=O)C2CC2)n1`, the IC50 in test [4] worked out at 1300 nM; in test [5] it was 440 nM; in test [1] it was 360 nM; in test [7] it was 450 nM; in test [2] it was 120 nM.

`COc1cc(N2CCOCC2)ccc1Nc1ncc(C(F)(F)F)c(Nc2ccccc2N)n1` displayed a half-inhibitory concentration (IC50) in test [2] of 1100 nM.

As to `COc1cc(N2CCOCC2)ccc1Nc1ncc(N(C)C)c(Nc2ccccc2NS(C)(=O)=O)n1`, the IC50 in test [1] is 1800 nM; in test [2], 240 nM.

As to `CCOc1cc(N2CCOCC2)ccc1Nc1ncc(Cl)c(Nc2ccccc2NS(C)(=O)=O)n1`, the IC50 in test [4] was found to be 12000 nM; in test [5], 49000 nM; in test [1] it was 2000 nM; in test [7], 11000 nM; in test [2], 750 nM.

For `Cc1cc(N2CCOCC2)ccc1Nc1ncc(Cl)c(Nc2ccccc2NS(C)(=O)=O)n1`, the half-maximal inhibitory concentration (IC50) came to 2000 nM in test [4]; 7000 nM in test [5]; 290 nM in test [1]; 460 nM in test [7]; 120 nM in test [2].

For `COc1cc(N2CCOCC2)ccc1Nc1ncc(Cl)c(Nc2ccccc2NS(=O)(=O)c2ccccc2)n1`, the IC50 in test [4] came out at 4000 nM; in test [5], 330 nM; in test [1], 1400 nM; in test [2], 1700 nM.

With `COc1cc(N2CCOCC2)ccc1Nc1ncc(Cl)c(Nc2ccccc2NC(N)=O)n1`, the results for the IC50 in test [7] and in test [2] were 100 nM and 79 nM, respectively.

Take `CS(=O)(=O)Nc1ccccc1Nc1nc(Nc2ccc(N3CCOCC3)c(C(F)(F)F)c2)ncc1Cl`: the IC50 in test [4] amounted to 540 nM; in test [5], 8000 nM; in test [1], 49 nM; in test [7], 110 nM; in test [2], 54 nM.
